Data on one sequence can be found in publication PMC2834670.

Construct, isoform or probe ends are uncertain for at least one entry. Where a protein sequence is shown, tags need not be part of it.

The target in this data set is T1, MleR (UniProt Q8DWC9).
T1 sequence (looked up, limits assumed): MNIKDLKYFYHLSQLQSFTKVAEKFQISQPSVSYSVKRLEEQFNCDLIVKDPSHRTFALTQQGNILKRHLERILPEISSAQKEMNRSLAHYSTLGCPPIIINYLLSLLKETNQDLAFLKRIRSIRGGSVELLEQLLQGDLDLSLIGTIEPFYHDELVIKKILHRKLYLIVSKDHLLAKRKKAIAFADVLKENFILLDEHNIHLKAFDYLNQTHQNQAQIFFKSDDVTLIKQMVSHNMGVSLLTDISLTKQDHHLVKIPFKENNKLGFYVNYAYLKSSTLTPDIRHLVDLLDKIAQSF
Kind of data set: EMSA. The settings on record: one complex, 20 mM Tris pH 7.5, 100 mM KCl, 2 mM EDTA, 10% glycerol, ~100 ng MleR, equal amount of competitor DNA (EP10/11 at 75 ng/ul), 20 min ambient temperature, recombinant protein, protein details: N-terminal 6His (pET28c, NdeI/NheI), label: none (SYBR Gold stain), probe letters rebuilt from the primers and the genome.

“AACCTATCATCGGCAAGCACAAGGCATCAGCCAAGAAAGTTTGTCTGAAAAAGCTGGATTAGGATTGAAATATATCAATCAGATTGAAAATCAAAACCATAATCTCAGCTTGCAGACGCTTGAAAAAGTGATTGAAGCACTAGGTATGACACCGGAAGATTTTTTTGACTTTAACAGTCTTGCCATGGAAATTT (double strand) [EMSA 4 fragment (EP6-7)]”: the binding result is, setting by setting: (5 mM L-malate) “binds”; (no L-malate) “binds”.
